Values of other authors as cited in US20220273637A1, “NOVEL PFAR-INHIBITING COMPOUNDS” (UNIVERSITE DE BRETAGNE OCCIDENTALE (UBO), priority 2019, published 2022).

System: PrP^Sc
Settings: value from the literature; cited from earlier work

SMILES: CCN(CC)CCCC(C)Nc1c2ccc(Cl)cc2nc2ccc(OC)cc12 (stereo not shown)
- pIC50: 6.52

pIC50: −log10 of the molar value.
